{"source": "PubChem BioAssay AID504761 | Drosophila RNAi Screening Center – 2011", "screen": "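Insect host genes that dengue virus relies on to spread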 (primary screen)", "system": "D.Mel-2 cells from Drosophila", "knock-down reagent": "long dsRNA against Drosophila genes", "conditions": "infection with dengue virus type 2; dose and infection time not stated", "measurement": "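Cells stained for dengue envelope protein and imaged; percent of infected cells per well on duplicate plates, ranked by infection, with stained nuclei counted for cell number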", "reading the numbers": "infection score: higher = more virus-infected cells; cell count: higher = more cells in the well", "rule for the call": "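Low infection ranks in the two replicates (chance level up to 0.065) followed by a retest with a 1.5-fold or larger significant decrease, p below 0.05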", "calls": "active = confirmed: knock-down lowers infection; inactive = not picked or not confirmed", "note": "The deposit covers about 22,000 reagents; this is an unselected part of those with a known target gene and a result. Of all reagents, 116 (0.52%) are marked active. 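Calls depend on retest data that are not deposited; infection was ranked per plate without normalising between plates; the unit of the infection score is not given.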 Raw values are not corrected between plates. Not given: the amount of reagent, the time to read-out."}
{"gene": "CG17780", "amplicon": "DRSC15265", "infection score, replicate 1": 5.74, "infection score, replicate 2": 10.2, "cell count, replicate 1": 4548, "cell count, replicate 2": 5174, "Call": "inactive"}
{"gene": "CG7409", "amplicon": "DRSC10842", "infection score, replicate 1": 2.09, "infection score, replicate 2": 11.5, "cell count, replicate 1": 6551, "cell count, replicate 2": 5975, "Call": "inactive"}
{"gene": "CG7409", "amplicon": "DRSC30043", "infection score, replicate 1": 7.73, "infection score, replicate 2": 7.59, "cell count, replicate 1": 6363, "cell count, replicate 2": 6313, "Call": "inactive"}
{"gene": "Osbp", "amplicon": "DRSC16779", "infection score, replicate 1": 1.66, "infection score, replicate 2": 3.31, "cell count, replicate 1": 6193, "cell count, replicate 2": 6351, "Call": "inactive"}
{"gene": "CG4627", "amplicon": "DRSC06873", "infection score, replicate 1": 6.43, "infection score, replicate 2": 3.62, "cell count, replicate 1": 6188, "cell count, replicate 2": 6802, "Call": "inactive"}
{"gene": "Lsp2", "amplicon": "DRSC09841", "infection score, replicate 1": 1.14, "infection score, replicate 2": 2.24, "cell count, replicate 1": 6589, "cell count, replicate 2": 6464, "Call": "inactive"}
{"gene": "Lsp2", "amplicon": "DRSC11216", "infection score, replicate 1": 2.84, "infection score, replicate 2": 1.8, "cell count, replicate 1": 6312, "cell count, replicate 2": 6554, "Call": "inactive"}
{"gene": "Lsp2", "amplicon": "DRSC24021", "infection score, replicate 1": 3.25, "infection score, replicate 2": 5.14, "cell count, replicate 1": 2523, "cell count, replicate 2": 6406, "Call": "inactive"}
{"gene": "CG11398", "amplicon": "DRSC18625", "infection score, replicate 1": 0.58, "infection score, replicate 2": 1.75, "cell count, replicate 1": 6393, "cell count, replicate 2": 6276, "Call": "inactive"}
{"gene": "CG14204", "amplicon": "DRSC19559", "infection score, replicate 1": 4.68, "infection score, replicate 2": 1.59, "cell count, replicate 1": 6369, "cell count, replicate 2": 6153, "Call": "inactive"}
{"gene": "CG14204", "amplicon": "DRSC29941", "infection score, replicate 1": 9.2, "infection score, replicate 2": 1.91, "cell count, replicate 1": 5563, "cell count, replicate 2": 6189, "Call": "inactive"}
{"gene": "CG10793", "amplicon": "DRSC17760", "infection score, replicate 1": 13.1, "infection score, replicate 2": 1.42, "cell count, replicate 1": 6215, "cell count, replicate 2": 6752, "Call": "inactive"}
{"gene": "CG6769", "amplicon": "DRSC20006", "infection score, replicate 1": 9.32, "infection score, replicate 2": 7.62, "cell count, replicate 1": 6566, "cell count, replicate 2": 7457, "Call": "inactive"}
{"gene": "TBC1D23", "amplicon": "DRSC00657", "infection score, replicate 1": 1.16, "infection score, replicate 2": 3.13, "cell count, replicate 1": 6359, "cell count, replicate 2": 6797, "Call": "inactive"}
{"gene": "TBC1D23", "amplicon": "DRSC30084", "infection score, replicate 1": 2.34, "infection score, replicate 2": 9.59, "cell count, replicate 1": 6547, "cell count, replicate 2": 5505, "Call": "inactive"}
{"gene": "CG3199", "amplicon": "DRSC15467", "infection score, replicate 1": 1.12, "infection score, replicate 2": 3.46, "cell count, replicate 1": 6244, "cell count, replicate 2": 6612, "Call": "inactive"}
{"gene": "CG3199", "amplicon": "DRSC30060", "infection score, replicate 1": 3.28, "infection score, replicate 2": 8.42, "cell count, replicate 1": 5756, "cell count, replicate 2": 4884, "Call": "inactive"}
{"gene": "CG6495", "amplicon": "DRSC01993", "infection score, replicate 1": 8.02, "infection score, replicate 2": 8.41, "cell count, replicate 1": 5763, "cell count, replicate 2": 5793, "Call": "inactive"}
{"gene": "CG6495", "amplicon": "DRSC29128", "cell count, replicate 1": 464, "cell count, replicate 2": 260, "Call": "inactive"}
{"gene": "Pat1", "amplicon": "DRSC17750", "infection score, replicate 1": 1.4, "infection score, replicate 2": 13.3, "cell count, replicate 1": 6514, "cell count, replicate 2": 6974, "Call": "inactive"}
{"gene": "Pat1", "amplicon": "DRSC27265", "infection score, replicate 1": 12.1, "infection score, replicate 2": 26.4, "cell count, replicate 1": 7122, "cell count, replicate 2": 6410, "Call": "inactive"}

Looked up above.
Entry for CG6769 [DRSC20006] in “Call”: inactive
Lsp2 [DRSC09841], infection score, replicate 1 = 1.14
